In experiment [1] the target is PBPb-I^E122A (Vibrio cholerae, UniProt Q9KT38, E122A). Put plainly: ITC, amino acids vs PBPb-I E122A mutant. Conditions: 20 mM Tris pH 8.0, 150 mM NaCl, 25 °C, refolded protein.
Experiment [2] deals with PBPb-I^E56A (Vibrio cholerae, UniProt Q9KT38, E56A). Put plainly: ITC, amino acids vs PBPb-I E56A mutant. Conditions: 20 mM Tris pH 8.0, 150 mM NaCl, 25 °C, refolded protein.
In experiment [3] the target is PBPb-I^R109A (Vibrio cholerae, UniProt Q9KT38, R109A). Put plainly: ITC, amino acids vs PBPb-I R109A mutant. Conditions: 20 mM Tris pH 8.0, 150 mM NaCl, 25 °C, refolded protein.
For experiment [4], the target named is PBPb-I^E56A/R109A/E122A/PBPb-II (Vibrio cholerae, UniProt Q9KT38, E122A/E56A/R109A). The experiment is described as follows: ITC, amino acids vs tandem PBPb domains with triple-mutated PBPb-I (probes PBPb-II). Conditions: ITC (iTC200), 20 mM Tris pH 8.0, 150 mM NaCl, 25 °C; protein purified without refolding.

Chains of the proteins cited; added tags and fusions are not shown. Lines headed by an entry give the natural chain unless they say otherwise; changes in a name come on top.
UniProt Q9KT38: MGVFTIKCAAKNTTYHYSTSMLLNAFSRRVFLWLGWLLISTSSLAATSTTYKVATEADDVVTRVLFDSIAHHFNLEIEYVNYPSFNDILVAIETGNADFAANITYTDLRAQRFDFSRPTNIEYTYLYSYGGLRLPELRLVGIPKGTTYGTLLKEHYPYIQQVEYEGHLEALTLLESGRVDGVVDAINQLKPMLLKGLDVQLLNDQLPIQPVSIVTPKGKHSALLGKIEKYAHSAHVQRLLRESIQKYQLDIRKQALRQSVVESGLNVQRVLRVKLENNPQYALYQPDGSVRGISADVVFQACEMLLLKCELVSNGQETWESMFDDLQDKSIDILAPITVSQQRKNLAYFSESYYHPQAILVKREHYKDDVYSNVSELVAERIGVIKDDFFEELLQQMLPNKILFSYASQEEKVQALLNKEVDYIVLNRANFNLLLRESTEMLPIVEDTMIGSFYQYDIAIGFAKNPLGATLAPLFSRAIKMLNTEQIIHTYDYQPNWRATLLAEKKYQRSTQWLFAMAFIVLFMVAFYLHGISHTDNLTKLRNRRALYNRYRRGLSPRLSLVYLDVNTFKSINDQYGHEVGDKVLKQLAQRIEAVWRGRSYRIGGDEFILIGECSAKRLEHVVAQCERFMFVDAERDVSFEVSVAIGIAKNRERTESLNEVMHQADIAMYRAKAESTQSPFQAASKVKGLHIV

As for L-ornithine, the Ka in experiment [1] turned out to be 441 ± 98 M⁻¹; in experiment [2], 41100 ± 8020 M⁻¹; in experiment [3], 653 ± 117 M⁻¹; in experiment [4], 314 ± 40 M⁻¹. The Kd in experiment [1] amounted to 2.27 mM; in experiment [3], 1.53 mM; in experiment [4], 3.18 mM. The ΔH is -9.74 ± 1.88 kcal/mol in experiment [1], -6.08 ± 0.55 kcal/mol in experiment [2], -5.09 ± 0.75 kcal/mol in experiment [3] and -2.35 ± 0.22 kcal/mol in experiment [4].

Values taken from article PMC5431781, “Structural studies of the periplasmic portion of the diguanylate cyclase CdgH from Vibrio cholerae” (Scientific Reports, 2017).
